{"source": "ChEMBL document CHEMBL1129975", "about": "“Depsides and depsidones as inhibitors of HIV-1 integrase: discovery of novel inhibitors through 3D database searching” (J Med Chem, 1997)", "key": {"[1]": {"molecular_target": "T1, Human immunodeficiency virus type 1 integrase (Human immunodeficiency virus 1, UniProt Q7ZJM1)", "experiment": "Inhibitory concentration of compound against strand transfer of HIV-1 integrase in experiment 1"}, "[2]": {"molecular_target": "T1, Human immunodeficiency virus type 1 integrase", "experiment": "Inhibitory concentration of compound against 3'-processing of HIV-1 integrase in experiment 2"}, "[3]": {"molecular_target": "T1, Human immunodeficiency virus type 1 integrase", "experiment": "Inhibitory concentration of compound against strand transfer of HIV-1 integrase in experiment 2"}, "[4]": {"molecular_target": "T1, Human immunodeficiency virus type 1 integrase", "experiment": "Inhibitory concentration of compound against 3'-processing of HIV-1 integrase in experiment 1"}}, "data": [{"compound": "O=C(O)c1c([N+](=O)[O-])cc([N+](=O)[O-])c(-c2c([N+](=O)[O-])cc([N+](=O)[O-])c(C(=O)O)c2[N+](=O)[O-])c1[N+](=O)[O-]", "values": [{"measurement": "IC50", "setting": "[1]", "result": 15, "unit": "µM"}, {"measurement": "IC50", "setting": "[2]", "result": 46.1, "unit": "µM"}, {"measurement": "IC50", "setting": "[3]", "result": 43.3, "unit": "µM"}, {"measurement": "IC50", "setting": "[4]", "result": 18.2, "unit": "µM"}]}]}
